Compound potency records, mixed from different reports. Data source: NIAID ChemDB in PubChem.

Common to all: growth or infection tests; species: Candida albicans

ECn: concentration that inhibits the pathogen or its effect by n%. MIC50, MIC90 and the like: level of inhibition, or share of isolates inhibited. An empty or dashed field is not shown. Neighbouring rows are from separate reports.

smiles | read-out | method | conditions | strain or isolate | result
O=c1[nH][se]c2ccccc12 | MIC | - | - | - | 256 µg/mL
COc1ccc2cc3[n+](cc2c1OC)CCc1cc2c(cc1-3)OCO2 | MIC | broth dilution | - | - | >160 µg/mL
CCOC(=O)C1=C(N)N(c2nc(-c3ccc(Cl)cc3)cs2)C2=C(C(=O)CCC2)C1c1cc2cc(OC)ccc2nc1F | MIC | broth dilution | - | MTCC 227 | 500 µg/mL
CC(C)=CCC/C(C)=C/CCC(C)=CCCC[n+]1ccccc1.Cc1ccc(S(=O)(=O)[O-])cc1 | EC50 | - | - | CCH442 | 0.36 µM
O=c1c(-c2ccc(O)cc2)coc2cc(OCCCN3CCCC3)cc(O)c12 | MIC | MTT | - | - | 20.5 µg/mL
C=CCSS(=O)CC=C | MIC | broth dilution | - | - | >160 µg/mL
C[n+]1cccc(-n2[se]c3ccccc3c2=O)c1 | MIC | - | - | - | >500 µg/mL
CCN1C[C@]2(COC)CC[C@H](O)[C@]34C1[C@@](O)([C@@H](OC)[C@H]23)[C@@]1(O)C[C@H](OC)C2C[C@@H]4[C@@H]1[C@H]2OC(C)=O | MIC | - | - | - | 4 µg/mL
C#CCOC(=O)c1ccc(S(N)(=O)=O)cc1 | MIC50 | - | - | - | >100 µg/mL
O=C1NC(=S)SC1C(Sc1ccccc1)c1ccc(Cl)cc1 | MIC | broth dilution | - | ATCC 2091 | 32 µg/mL
Cn1nc(-c2ccc(Br)cc2)nc2c(=O)n(-c3ccccc3)c(=O)nc1-2 | MIC | - | - | IFO 0583 | 50 µg/mL
CCCCn1sc2cccc(C(F)(F)F)c2c1=O | MIC | - | - | ATCC 2091 | 30 µg/mL
CC[C@H]1OC(=O)C=C2C1=CC1OC(=O)[C@@]3(C)CCC[C@@]2(C)[C@@H]13 | MIC | - | - | ATCC 90028 | 8 µg/mL
CC(C)CCCC(C)CCCC(C)CCCC[n+]1ccc(N(C)C)cc1.O=C([O-])C(F)(F)F | EC50 | - | - | CCH442 | 0.66 µM
Cc1cc2c(C)cc(O)cc2c(=O)o1 | EC50 | resazurin | - | SC5314 | 97.9 µM
Cn1nc(-c2cccc(Cl)c2)[n+]([O-])c2c(=O)n(-c3ccccc3)c(=O)nc1-2 | MIC | - | - | IFO 0583 | 50 µg/mL
Cc1ccc2nc(F)c(C3C(C#N)=C(N)N(c4nc(-c5ccc(O)cc5)cs4)C4=C3C(=O)CCC4)cc2c1 | MIC | broth dilution | - | MTCC 227 | >1000 µg/mL
Cn1[se]c2c(ccc[n+]2C)c1=O | MIC | - | - | - | >500 µg/mL
O=c1c(-c2ccc(O)cc2)coc2cc(OCCCCN3CCCC3)cc(O)c12 | MIC | MTT | - | - | >50 µg/mL
COc1ccc2c(c1OC)C(=O)O[C@@H]2[C@H]1c2cc3c(cc2CCN1C)OCO3 | MIC | - | - | ATCC 10231 | >1000 µg/mL
COc1cc(O)c2c(c1)C1=C[C@H](O)[C@@H](O)C[C@]1(C)OC2=O | EC50 | resazurin | - | SC5314 | >250 µM
NC(=O)c1ccc(C(F)(F)F)cc1SSc1cc(C(F)(F)F)ccc1C(N)=O | MIC | - | - | ATCC 2091 | 7.5 µg/mL
COc1c(O)ccc2c1C(=O)N1CCc3cc4c(cc3C1C2)OCO4 | MIC | - | - | ATCC 10231 | >1000 µg/mL
O=c1c2cccnc2[se]n1N(c1ccccc1)c1ccccn1 | MIC | - | - | - | >500 µg/mL
COc1cc(O)c2c(c1)C(=O)c1c(cc3c(c1O)-c1c(cc(C)c(C(=O)N[C@H](C)C(=O)O)c1O)[C@H](O[C@@H]1O[C@H](C)[C@H](N)[C@H](O[C@@H]4OC[C@@H](O)[C@H](O)[C@@H]4O)[C@H]1O)[C@H]3O)C2=O | MIC | - | - | 83-2-14 | 3.1 µg/mL
CCCCn1sc2cc(F)ccc2c1=O | MIC | - | - | ATCC 2091 | 15 µg/mL
Cn1nc(-c2ccccc2)[n+]([O-])c2c(=O)n(C)c(=O)nc1-2 | MIC | - | - | IFO 0583 | 5 µg/mL
COc1ccc(C(=O)CC(c2cc3ccccc3nc2Cl)C(C#N)C#N)cc1OC | MIC | - | - | ATCC 10231 | >50 µg/mL
CCC(C)CC(C)CCCCCCCCC(=O)N[C@H]1C[C@@H](O)[C@H](NCCN)NC(=O)[C@@H]2[C@@H](O)CCN2C(=O)[C@H]([C@H](O)CCN)NC(=O)[C@H]([C@H](O)[C@@H](O)c2ccc(O)cc2)NC(=O)[C@@H]2C[C@@H](O)CN2C(=O)[C@H]([C@@H](C)O)NC1=O | MIC | resazurin | - | DSY3988 | 0.63 µg/mL
CN1CCN(CCCOc2cc(O)c3c(=O)c(-c4ccc(O)cc4)coc3c2)CC1 | MIC | MTT | - | - | >50 µg/mL
Oc1cc(Cl)cc2cc(Cl)cnc12 | MIC | - | 24 h | ATCC 60913 | 12 µg/mL
CCCCOC(=O)C1(OC(C)=O)CC(OC(C)=O)C(OC(=O)/C=C/c2ccc(OC(C)=O)c(OC)c2)C(OC(C)=O)C1 | MIC | - | - | ATCC 10231 | >1000 µg/mL
Nc1ccc(S(N)(=O)=O)cc1 | MIC50 | - | - | - | >100 µg/mL
COc1ccc2nc(F)c(C3C(C#N)=C(N)N(c4nc(-c5ccc(O)cc5)cs4)C4=C3C(=O)CCC4)cc2c1 | MIC | broth dilution | - | MTCC 227 | 500 µg/mL
Cn1nc(-c2ccc(Cl)cc2)nc2c(=O)n(-c3ccccc3)c(=O)nc1-2 | MIC | - | - | IFO 0583 | 20 µg/mL
CN[C@@H]1[C@H](O)[C@@H](O)[C@H](O[C@H]2c3cc(C)c(C(=O)N[C@H](C)C(=O)O)c(O)c3-c3c(cc4c(c3O)C(=O)c3cc(OC)cc(O)c3C4=O)[C@@H]2O)O[C@@H]1C | MIC | - | - | ATCC 32354 | 3.1 µg/mL
O=C1NC(=S)SC1C(Sc1ccccc1)c1ccccc1 | MIC | broth dilution | - | ATCC 2091 | 64 µg/mL
CC[C@H]1OC(=O)C=C2[C@@]13O[C@@H]3C1OC(=O)[C@@]3(C)CCC[C@@]2(C)[C@@H]13 | MIC | - | - | ATCC 90029 | 16 µg/mL
Cn1nc(-c2ccc(Cl)c(Cl)c2)nc2c(=O)n(C)c(=O)nc1-2 | MIC | - | - | IFO 0583 | 5 µg/mL
NCCCC(N)CC(=O)NC1C(NC2=N[C@@H]3C(=O)NC[C@@H](O)[C@H]3N2)OC(CO)C(OC(N)=O)C1O | MIC | resazurin | - | SC5314 | 2.5 µg/mL
CCN(CC)N1C(=O)/C(=C/c2ccccc2)SC1=S | MIC | broth dilution | - | ATCC 2091 | 32 µg/mL
CCOC(=O)C1=C(N)N(c2nc(-c3ccccc3O)cs2)C2=C(C(=O)CCC2)C1c1cc2cc(Cl)ccc2nc1F | MIC | broth dilution | - | MTCC 227 | 250 µg/mL
Oc1cc(Cl)cc2cccnc12 | MIC | - | 24 h | ATCC 60913 | 12 µg/mL
COc1cc(C)c2c(=O)c3c(O)cc(O)cc3oc2c1 | EC50 | resazurin | - | SC5314 | >250 µM
O=c1c(-c2ccc(O)cc2)coc2cc(OCCCNCc3ccco3)cc(O)c12 | MIC | MTT | - | - | >50 µg/mL
CCOC(=O)C1=C(N)N(c2nc(-c3ccccc3)cs2)C2=C(C(=O)CCC2)C1c1cc2cc(Cl)ccc2nc1F | MIC | broth dilution | - | MTCC 227 | 250 µg/mL
C[C@@H](c1nc(-c2ccc(C#N)cc2)cs1)[C@](O)(Cn1cnnc1)c1ccc(F)cc1F | MIC | - | - | Isogenic isolate 11 (25X) | ≤0.008 µg/mL
Cn1nc(-c2ccc(Br)cc2)[n+]([O-])c2c(=O)n(-c3ccccc3)c(=O)nc1-2 | MIC | - | - | IFO 0583 | 20 µg/mL
COc1cc(O)c(C(=O)O)c(-c2cc(O)c(O)cc2C)c1 | EC50 | resazurin | - | SC5314 | >250 µM
COc1ccc(/C=C/C(=O)c2ccc(C)cc2)cc1 | MIC | - | - | ATCC 10231 | >50 µg/mL
CC(C)N(C(C)C)N1C(=O)/C(=C/c2ccccc2)SC1=S | MIC | broth dilution | - | ATCC 2091 | 64 µg/mL
C[C@@H]1[C@H](O)[C@@H](C)/C=C/C=C/CC/C=C/C=C/C=C/C=C/C(O[C@H]2O[C@H](C)[C@@H](O)[C@H](N)[C@@H]2O)CC2O[C@](O)(CC(O)C(O)CCC(O)CC(O)CC(O)CC(=O)O[C@H]1C)CC(O)C2C(=O)O | MIC | turbidity / visual reading | - | MTCC 227 | 100 µg/mL
CCN1C[C@]2(COC)CC[C@H](OC)[C@]34C1[C@@](O)([C@@H](OC)[C@H]23)[C@@]1(O)C[C@H](OC)C2C[C@@H]4[C@@H]1[C@H]2OC(C)=O | MIC | - | - | - | 4 µg/mL
O=C1NC(=S)SC1C(Sc1ccccc1)c1c(Cl)cccc1Cl | MIC | broth dilution | - | ATCC 2091 | 64 µg/mL
NS(=O)(=O)c1ccc(-n2cc(CO)nn2)cc1 | MIC50 | - | - | - | >100 µg/mL
CN(C/C=C/C#CC(C)(C)C)Cc1cccc2ccccc12 | MIC | - | - | YAG237 (genotype CNB1-1/CNB1) | >12.5 µg/mL
CCOC(=O)C1=C(N)N(c2nc(-c3ccccc3O)cs2)C2=C(C(=O)CCC2)C1c1cc2ccccc2nc1F | MIC | broth dilution | - | MTCC 227 | 1000 µg/mL
CCCN(CCC)CCCCOc1cc(O)c2c(=O)c(-c3ccc(O)cc3)coc2c1 | MIC | MTT | - | - | >50 µg/mL
O=c1c2ccccc2[se]n1-c1cc([N+](=O)[O-])ccn1 | MIC | - | - | - | >500 µg/mL
COc1cc(O)c2c(c1)-c1cc(O)c(O)cc1COC2=O | EC50 | resazurin | - | SC5314 | >250 µM
CC(C)=CCC/C(C)=C/CCC(C)=CCCC[n+]1ccc(N(C)C)cc1.O=C([O-])C(F)(F)F | EC50 | - | - | CCH442 | 0.09 µM
CCN(CC)N1C(=O)C(C(Sc2ccccc2)c2cccc(C)c2)SC1=S | MIC | broth dilution | - | ATCC 2091 | 32 µg/mL
Cn1nc(-c2ccc(Cl)cc2)[n+]([O-])c2c(=O)n(-c3ccccc3)c(=O)nc1-2 | MIC | - | - | IFO 0583 | 50 µg/mL
CCCCn1sc2ccc(C(F)(F)F)cc2c1=O | MIC | - | - | ATCC 2091 | 40 µg/mL
CCCCN(CCCC)CCOc1cc(O)c2c(=O)c(-c3ccc(O)cc3)coc2c1 | MIC | MTT | - | - | >50 µg/mL
COC(=O)C(C(=O)OC)C(CC(=O)c1ccccc1)c1ccccc1 | MIC | - | - | ATCC 10231 | >50 µg/mL
CCCCCCCCCCCCCCCCCCCC[n+]1ccccc1.[Br-] | MIC | - | - | CCH442 | 3.4 µM
CCN(CC)N1C(=O)C(C(Sc2ccccc2)c2ccccc2)SC1=S | MIC | broth dilution | - | ATCC 2091 | 64 µg/mL
Oc1c(Cl)cc(Cl)c2cccnc12 | MIC | - | 24 h | ATCC 60913 | 6.2 µg/mL
O=c1c(-c2ccc(O)cc2)coc2cc(OCCBr)cc(O)c12 | MIC | MTT | - | - | >50 µg/mL
COc1ccc2nc(F)c(C3C(C#N)=C(N)N(c4nc(-c5ccccc5)cs4)C4=C3C(=O)CCC4)cc2c1 | MIC | broth dilution | - | MTCC 227 | 500 µg/mL
CN1CCN(CCCCOc2cc(O)c3c(=O)c(-c4ccc(O)cc4)coc3c2)CC1 | MIC | MTT | - | - | >50 µg/mL
COc1ccc2c(c1OC)C(=O)N1CCc3cc4c(cc3C1C2)OCO4 | MIC | - | - | ATCC 10231 | >1000 µg/mL

A second listing of 8 rows from above:

smiles,read-out,method,conditions,strain or isolate,result
O=C1NC(=S)SC1C(Sc1ccccc1)c1ccc(Cl)cc1,MIC,broth dilution,-,ATCC 2091,32 µg/mL
Cc1ccc2nc(F)c(C3C(C#N)=C(N)N(c4nc(-c5ccc(O)cc5)cs4)C4=C3C(=O)CCC4)cc2c1,MIC,broth dilution,-,MTCC 227,>1000 µg/mL
COc1ccc2cc3[n+](cc2c1OC)CCc1cc2c(cc1-3)OCO2,MIC,broth dilution,-,-,>160 µg/mL
CN1CCN(CCCCOc2cc(O)c3c(=O)c(-c4ccc(O)cc4)coc3c2)CC1,MIC,MTT,-,-,>50 µg/mL
NCCCC(N)CC(=O)NC1C(NC2=N[C@@H]3C(=O)NC[C@@H](O)[C@H]3N2)OC(CO)C(OC(N)=O)C1O,MIC,resazurin,-,SC5314,2.5 µg/mL
O=c1c2ccccc2[se]n1-c1cc([N+](=O)[O-])ccn1,MIC,-,-,-,>500 µg/mL
Cn1nc(-c2ccc(Br)cc2)[n+]([O-])c2c(=O)n(-c3ccccc3)c(=O)nc1-2,MIC,-,-,IFO 0583,20 µg/mL
CCN1C[C@]2(COC)CC[C@H](O)[C@]34C1[C@@](O)([C@@H](OC)[C@H]23)[C@@]1(O)C[C@H](OC)C2C[C@@H]4[C@@H]1[C@H]2OC(C)=O,MIC,-,-,-,4 µg/mL